The assay deals with L-plastin EF construct (EF-hand headpiece domain, H5 region omitted) (human). As to the kind of experiment: SPR. Background: Surface plasmon resonance follows binding to a sensor surface in real time, without labels.

This note sets out measurements from article PMC5286426, “The Calcium-Dependent Switch Helix of L-Plastin Regulates Actin Bundling” (Scientific Reports, 2017).

Take “melittin (cytotoxic peptide from bee venom) (from UniProt P01501 44-70)”: the Kd (in general, the equilibrium constant for the complex coming apart) amounted to 158 nM.
